{"source": "patent US6559178B1", "about": "(priority 2002, dated 2003)", "origin": "cited, not measured here", "system": "human epidermoid cells, virally infected with HSV-2", "conditions": "for protein synthesis inhibition observed: at around 1 ng/ml; for inhibition of hyperactive protein synthesis: by ~5 ng/ml, HSV-2 infected human epidermoid cells"}
{"substance": "Roridin A", "values": [{"measurement": "protein synthesis inhibition observed", "result": "almost no protein synthesis inhibition"}, {"measurement": "inhibition of hyperactive protein synthesis", "result": 99, "unit": "%"}]}
{"substance": "Satratoxin G", "values": [{"measurement": "protein synthesis inhibition observed", "result": "almost no protein synthesis inhibition"}, {"measurement": "inhibition of hyperactive protein synthesis", "result": 99, "unit": "%"}]}
